In article PMC6291738, “Identification of novel HIV-1-derived HLA-E-binding peptides” (Immunology Letters, 2018):
No end group written: not given here.

Chains of the proteins cited; added tags and fusions are not shown. Residues count along the entry.
UniProt P13747, 22-358 limits assumed: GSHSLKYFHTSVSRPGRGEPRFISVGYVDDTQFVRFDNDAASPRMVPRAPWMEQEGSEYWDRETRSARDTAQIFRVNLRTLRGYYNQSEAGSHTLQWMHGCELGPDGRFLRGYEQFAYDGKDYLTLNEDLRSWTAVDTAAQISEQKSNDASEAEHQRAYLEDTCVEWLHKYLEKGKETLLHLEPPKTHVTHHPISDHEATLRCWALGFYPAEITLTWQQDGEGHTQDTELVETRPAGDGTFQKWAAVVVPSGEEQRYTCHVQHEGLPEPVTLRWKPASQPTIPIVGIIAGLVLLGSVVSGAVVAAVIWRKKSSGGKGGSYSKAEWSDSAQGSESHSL
UniProt P61769, 21-119 partner limits assumed: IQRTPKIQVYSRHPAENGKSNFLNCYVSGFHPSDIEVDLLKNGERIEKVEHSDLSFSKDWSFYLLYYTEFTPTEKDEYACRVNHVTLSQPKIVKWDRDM

Molecular target: HLA-E*01:03 (Homo sapiens, UniProt P13747)
Assay: HLA-E*01:03 surface stabilization by 9-mer peptides on LCL721.221 cells overexpressing HLA-E*01:03
Conditions: LCL721.221 cells overexpressing HLA-E*01:03 pulsed with 9-mer peptide; serum-free AIM V; flow cytometry; mean ± SD (n = 3); no peptide 3380 ± 10

Sequence: PEIVIYQYM [PM9]
- HLA-E MFI, LCL721.221/HLA-E*01:03 assay: over 4000
